Data taken from paper PMC3928294 (2014).

B1: chimeric H5M9 (antibody, V domains shown)
VH: EVHLQQSGPELVKPGASVKMSCKTSGYTFTEYTIHWMKQSHGKSLEWIGGIFPNNGDTTYNQKFKIRATLTVGKSSSTAYMDLRSLTSEDSAVYYCVRNYGSSYGYFDVWGAGTTVTVSS
VL: DIVLTQSPGSLTVSLGQRATISCRASESVDNFGKSFMHWYQQKPGQSPKLLIYRASNREFGIPARFNGSGSGTDFALTINPVEADDVATYFCQQSNEDPRTFGGGTKLEIK
B2: mouse monoclonal antibody H5M9 (antibody, V domains shown)
VH: EVHLQQSGPELVKPGASVKMSCKTSGYTFTEYTIHWMKQSHGKSLEWIGGIFPNNGDTTYNQKFKIRATLTVGKSSSTAYMDLRSLTSEDSAVYYCVRNYGSSYGYFDVWGAGTTVTVSS
VL: DIVLTQSPGSLTVSLGQRATISCRASESVDNFGKSFMHWYQQKPGQSPKLLIYRASNREFGIPARFNGSGSGTDFALTINPVEADDVATYFCQQSNEDPRTFGGGTKLEIK
B3: CDR-grafted (humanized) antibody hH5M9 (antibody, V domains shown)
VH: EVKLQQSGPELVKPGASVKMSCKASGYTFTEYTIHWMKQKPGQGLEWIGGIFPNNGDTTYNQKFKIRATLTVDKSSSTAYMELSSLTSEDSAVYYCARNYGSSYGYFDVWGQGTTVTVSS
VL: DIVLTQSPASLAVSLGQRATISCRASESVDNFGKSFMHWYQQKPGQPPKLLIYRASNREFGVPARFSGSGSGTDFTLNIHPVEEEDAATYYCQQSNEDPRTFGGGTKLEIK

molecular target: H5 HA (A/Vietnam/1194/04) (influenza A virus A/Vietnam/1194/04 …); assay: SPR

Row | Binder | koff [s⁻¹]
1 | B1 | 2.49e-05
2 | B2 | 2.1e-05
3 | B3 | 0.00018
